Anti-infective test results gathered from many reports (values: NIAID ChemDB through PubChem).

Shared fields: whole-cell or culture tests; species: Mycobacterium tuberculosis

MIC bound comes from a single tested concentration. Percent inhibition refers to the dose given; in toxicity tests it is the harm to the cells. ECn is the concentration giving n% inhibition of infection, replication or growth. Conditions beyond the fields shown may differ between rows. A number after MIC or MFC names an inhibition level or a share of isolates. a–b is a range or a potency band. An empty or dashed field is not shown.

smiles	setting	measure	cells	method	strain or isolate	dose	changes	result
CC(C)=CCc1c(O)cc2oc3cc(O)c4c(c3c(=O)c2c1O)C=CC(C)(C)O4		MIC			H37Ra			6.25 µg/mL
N[C@@H]1CN(c2c(F)cc3c(=O)c(C(=O)O)cn([C@@H]4C[C@@H]4F)c3c2Cl)CC12CC2		MIC						>0.03 µg/mL
O=C1O[C@@H](Cn2nccn2)CN1c1ccc(N2CC3(COC3)C2)c(F)c1		MIC		broth dilution / fluorescence	H37Rv			>32 µg/mL
CC(C)C(N)C(=O)NC(Cc1ccc(O)cc1)C(=O)NC(C(=O)O)C(C)C		inhibition		BACTEC	H37Rv	12.5 µg/mL		0%
CCCCCCCCP(=O)([O-])C[C@@H]1O[C@H](CO)[C@@H](O)[C@@H]1O		EC50			H37Rv			>6.25 µg/mL
OC[C@H]1O[C@@H](n2ccc3c(-c4ccsc4)nc(F)nc32)C(O)C1O		MIC		MTT	My 331/88			125 µM
CC1C(=O)Nc2ccc(C(=O)CN3CCN(c4noc5cccc(Cl)c45)CC3)cc21		MIC		visual reading / absorbance	H37Rv			25 µg/mL
O=C1OS(=O)(=O)Nc2ccccc21		MIC bound		resazurin	H37Rv			>6.25 µg/mL
CCN1C(=O)Cc2cc(C(=O)CN3CCN(c4ccc([N+](=O)[O-])cc4)CC3)ccc21		MIC		visual reading / absorbance	H37Rv			3.12 µg/mL
O=C(Nc1ccccc1)c1c(O)[nH]c(=S)[nH]c1=O		MIC bound		BACTEC	H37Rv			>12.5 µg/mL
O=C(Nn1c(-c2ccccc2)ccc1-c1ccccc1)c1ccncc1		EC90		turbidity	H37Rv			3.72 µg/mL
S=C(Nc1ccc(N=Nc2ccccc2)cc1)SCc1ccc(Cl)cc1		MIC		BACTEC	H37Rv			64 µg/mL
CC1COc2c(N3CCN(C)CC3)c(F)cc3c(=O)c(C(=O)O)cn1c23	clinical isolate	MIC			Clinical isolates			0.25 µg/mL
COc1c(O)cc2oc3cc(O)c(CC=C(C)C)c(O)c3c(=O)c2c1CC=C(C)C		MIC			H37Ra			6.25 µg/mL
CCOC(=O)CNC(=O)C(CC(C)C)NC(=O)C1CCCN1C(=O)OCc1ccccc1		MIC bound		BACTEC	H37Rv			>12.5 µg/mL
CCn1cc(C(=O)O)c(=O)c2cc(F)c(N3CCN(C/C(=N/O)c4ccc(F)cc4)CC3)nc21		MIC			H37Rv			>6.25 µg/mL
CCCNCC(=O)Nc1ccc(C)c(Cl)c1		MIC bound		BACTEC	H37Rv			>12.5 µg/mL
Cc1ccc2nc(SCc3cccc(Br)c3)[nH]c2c1		MIC			MY 332/88			32 µM
CC1COc2c(N3CCN(C)CC3)c(F)cc3c(=O)c(C(=O)O)cn1c23		MIC			36 strains			0.3–1.2 µg/mL
NC[C@H]1CN(c2cc(F)c(N3CC4CCC(C3)O4)c(F)c2)C(=O)O1		MIC		broth dilution / fluorescence	H37Rv			0.2–0.3 µg/mL
CC(C)(C)Cc1nc(N)c2ncn([C@@H]3OC(COS(=O)(=O)NC(=O)CCCCC4SCC5NC(=O)NC54)[C@@H](O)[C@H]3O)c2n1.CCN(CC)CC		MIC		broth dilution	H37Rv			>100 µM
Cc1ccc2c(c1)c1c3n2CCN(CC(O)CNC2CCC2)C3CCC1		MIC			H37Rv			64 µg/mL
NNC(=O)c1ccncc1		inhibition		turbidity	H37Rv (ATCC 27294)	0.21 µg/mL		90%
COc1cc(C/C=C/c2ccccc2)c(OC)cc1O		inhibition		BACTEC	H37Rv	12.5 µg/mL		18%
OC[C@H]1O[C@@H](n2ccc3c(-c4ccco4)nc(Cl)nc32)C(O)C1O		MIC		MTT	My 331/88			>250 µM
COc1cc2oc3ccc(O)cc3c(=O)c2c(O)c1CC=C(C)C		MIC			H37Ra			>200 µg/mL
CCOC(=O)c1ccc(N2CCN(CCn3c(-c4ccc(C)cc4)nc4cc(C(=O)OCC)ccc43)CC2)c(N)c1		MIC		resazurin	INHR-MTB		Isoniazid-resistant	2.1 µM
CCn1cc(C(=O)O)c(=O)c2cc(F)c(N3CCN(CC(=O)c4ccc(Br)cc4)CC3)cc21		MIC	VERO		H37Rv			6.25 µg/mL
Cc1c(C(=O)NC2(C#N)CCCC2)nn(-c2ccc(Cl)cc2Cl)c1-c1ccc(Cl)cc1		MIC		absorbance	H37Rv			>100 µg/mL
CCCCCCNc1c([N+](=O)[O-])cc(C)cc1[N+](=O)[O-]		inhibition		BACTEC	H37Rv	12.5 µg/mL		92%
COc1ncccc1Nc1cc2nc3ccccc3n(-c3ccc(OC(F)(F)F)cc3)c-2cc1=NC1CCC(OC)CC1		MIC90		fluorescence	H37Rv			0.06 µg/mL
CC1=CC(=O)c2ccccc2C1=O		MBC		broth dilution	H37Ra ATCC 25177			16 µg/mL
Nc1nc(-c2cccc3c2oc2ccccc23)c2ccn([C@@H]3O[C@H](CO)C(O)C3O)c2n1		MIC		MTT	My 331/88			>250 µM
CC1COc2c(N3CCN(C)CC3)c(F)cc3c(=O)c(C(=O)O)cn1c23		MIC50			38 strains			0.39 µg/mL
C=CCN1CCN(/N=C/c2c3c(O)c4c(O)c(C)c5c(c4c2O)C(=O)[C@@](C)(O/C=C/[C@H](OC)[C@@H](C)[C@@H](OC(C)=O)[C@H](C)[C@H](O)[C@H](C)[C@@H](O)[C@@H](C)/C=C/C=C(/C)C(=O)N3)O5)CC1		MIC			H37Rv			0.02 µg/mL
Cc1ccc2nc(SCc3ccc(C#N)cc3)[nH]c2c1		MIC			MY 332/88			62 µM
CC(C)=Cc1cc(CCC/C(C)=C/Cc2c(O)cc(C)c(C(=O)O)c2O)co1		MIC		BACTEC	H37Rv			≥12.5 µg/mL
Cc1ccc2c(c1)c1c3n2CCN(CC(O)Cc2ccccc2)C3CCC1		MIC			H37Rv			4 µg/mL
CCn1cc(C(=O)O)c(=O)c2cc(F)c(N3CCN(CC(=O)c4ccccc4)CC3)cc21		inhibition	VERO		H37Rv	6.25 µg/mL		100%
CCCCCCCCCCCCCCCCS(=O)(=O)C[C@@H]1O[C@H](CO)[C@@H](O)[C@@H]1O		inhibition			H37Rv	6.25 µg/mL		0%
CCOC(=O)c1ccc(N2CCN(CCn3c(-c4ccc5c(c4)OCO5)nc4cc(C(=O)OCC)ccc43)CC2)c(N)c1		MIC		resazurin	INHR-MTB		Isoniazid-resistant	41.72 µM
O=C(NCCNCCO)c1cc([N+](=O)[O-])cc([N+](=O)[O-])c1O		inhibition			H37Rv	6.25 µg/mL		-11%
Cc1ccc2c(c1)c1c3n2CCN(CC(O)CNCCCCN(C)C)C3CCC1		MIC			H37Rv			16 µg/mL
Cc1ccc2nc(SCc3ccc(C(F)(F)F)cc3)[nH]c2c1		MIC			MY 332/88			62 µM
CCOC(=O)CCc1cc(=O)oc2cc(O)cc(O)c12		inhibition		BACTEC	H37Rv	12.5 µg/mL		-1%
CCOC(=O)c1ccc(N2CCN(CCn3c(-c4ccc(O)cc4O)nc4cc(C(=O)OCC)ccc43)CC2)c(N)c1		MIC		broth dilution	H37Rv			4.32 µM
CC1C(=O)Nc2ccc(C(=O)CN3CCN(c4noc5ccccc45)CC3)cc21		MIC		visual reading / absorbance	H37Rv			25 µg/mL
CCCCCCCCN(c1ccc(C(=O)NC(CCC(=O)OCC)C(=O)OCC)cc1)S(=O)(=O)c1ccc(C)cc1		inhibition		BACTEC	H37Rv	12.5 µg/mL		2%
Cc1ccc2c(c1)c1c3n2CCN(C(=O)CCC(=O)O)C3CCC1		MIC			ATCC 607			250 µg/mL
CC1=CC(=O)C(C(C)C)=CC1=O		MIC		broth dilution	H37Ra ATCC 25177			8 µg/mL
Cc1nc(C)c2ccn([C@@H]3O[C@H](CO)C(O)C3O)c2n1		MIC		MTT	My 331/88			>250 µM
Cc1ccc2c(c1)c1c3n2CCN(C=O)C3CCC1		MIC			H37Rv			8 µg/mL
O=C1C(N=Nc2ccccc2)Sc2nc3ccccc3n21		inhibition		BACTEC	H37Rv	12.8 µg/mL		7%
CO[C@H]1/C=C/O[C@@]2(C)Oc3c(C)c(O)c4c(O)c(c(/C=N/N5CCN(C)CC5)c(O)c4c3C2=O)NC(=O)/C(C)=C\C=C\[C@H](C)[C@H](O)[C@@H](C)[C@@H](O)[C@@H](C)[C@H](OC(C)=O)[C@@H]1C		MIC90			10 strains			0.06 µg/mL
Cc1ccc(-c2ccccc2)n1NC(=O)c1ccncc1		EC50		turbidity	LORA			0.86 µg/mL
COc1c(O)cc2oc3cc4c(c(O)c3c(=O)c2c1CC=C(C)C)C=CC(C)(C)O4		MIC			H37Ra			12.5 µg/mL
CCCCCCCCCCCCP(=O)([O-])C[C@@H]1O[C@H](CO)[C@@H](O)[C@@H]1O		inhibition			H37Rv	6.25 µg/mL		17%
Cc1nn(C)c2c(N)n[nH]c12		inhibition		BACTEC	H37Rv	128 µg/mL		86%
COc1cc2c3c(cc4cc5c(cc4c3c1OC)OCO5)N(C=O)CC2		MIC		resazurin	H37RvSr			>50 µg/mL
CC1=CCC(=O)[C@]2(C)C(CC(=O)O)[C@]3(C)C4=C(C)[C@H](c5ccoc5)C[C@@H]4O[C@@H]3[C@H](O)[C@@H]12		MIC bound		BACTEC	H37Rv			>12.8 µg/mL
Nc1nc(-c2ccccc2)c2ccn([C@@H]3O[C@H](CO)C(O)C3O)c2n1		MIC		MTT	My 331/88			>250 µM
CCn1cc(C(=O)O)c(=O)c2cc(F)c(N3CCN(CC(=O)c4ccc(OC)cc4)CC3)cc21		inhibition			H37Rv	6.25 µg/mL		24%
CCOC(=O)c1ccc(N2CCN(CCn3c(-c4ccc(Cl)cc4)nc4cc(C(=O)OCC)ccc43)CC2)c(N)c1		MIC		resazurin	INHR-MTB		Isoniazid-resistant	24.12 µM
COc1cc(OC)c2cc([N+](=O)[O-])c3ccc(=O)oc3c2c1		MIC		resazurin	H37RvEr			50 µg/mL
CC(C)=CCc1c(O)ccc2oc3cc4c(c(O)c3c(=O)c12)C=CC(C)(C)O4		MIC			H37Ra			12.5 µg/mL
O=C1CN(Cc2ccccc2)CC(=O)N2Cc3ccccc3CN12		inhibition		BACTEC	H37Rv	12.5 µg/mL		25%
COc1c(O)cc2oc3cc4c(c(O)c3c(=O)c2c1CC=C(C)C)CC(=O)C(C)(C)O4		MIC			H37Ra			200 µg/mL
Cc1cc[n+](CC(=O)c2ccc(F)cc2)cc1.[Br-]	multidrug-resistant	EC50		resazurin	Clinical isolate			8 µg/mL
Cc1ccc2[nH]c(=S)[nH]c2c1		MIC			MY 332/88			>250 µM
NC(=O)C(CO)NC(=O)c1cccnc1		MIC		BACTEC	H37Rv			≥12.5 µg/mL
Cc1ccc2c(c1)c1c3n2CCN(C(=O)/C=C/C(=O)O)C3CCC1		MIC			H37Rv			16 µg/mL
CC(C)=CCc1c(O)c2c(c3oc4cc5c(c(O)c4c(=O)c13)C=CC(C)(C)O5)C=CC(C)(C)O2		MIC			H37Ra			25 µg/mL
C=C(C)C1CC=C(C)/C(=N/NC(=O)c2cccnc2)C1		MIC			CS-R			<0.1 µg/mL
NNC(=O)c1ccncc1		MIC50			38 strains			0.39 µg/mL
Cc1nn(CCO)c(N)c1C(N)=O		MIC bound		BACTEC	H37Rv			>12.5 µg/mL
CCCCCCCCCCCCCCCOCCCCCCCCCCS(=O)(=O)C[C@@H]1O[C@H](CO)[C@@H](O)[C@@H]1O		EC50			H37Rv			>6.25 µg/mL
Cc1c(C(=O)N2CC[Si](C)(C)CC2)nn(-c2ccc(Cl)cc2Cl)c1-c1ccc(Cl)cc1		MIC		absorbance	H37Rv			>100 µg/mL
Cc1ccc2c(c1)c1c3n2CCNC3CCC1		MIC			H37Rv			8 µg/mL
OCc1cc(-c2ccc(Cl)cc2)n(-c2ccc(Cl)cc2)n1		MIC		absorbance	H37Rv			50 µg/mL
CCCCCCCCCS(=O)(=O)C[C@@H]1O[C@H](CO)[C@@H](O)[C@@H]1O		inhibition			H37Rv	6.25 µg/mL		0%
NC(=S)NN=C1CSSC1		MIC bound		BACTEC	H37Rv			≤12.5 µg/mL
Cc1c(C(=O)NCC[Si](C)(C)C)nn(-c2ccc(Cl)cc2Cl)c1-c1ccc(Cl)cc1		MIC		absorbance	H37Rv			>100 µg/mL

Again, the opening 5 rows:

CC(C)=CCc1c(O)cc2oc3cc(O)c4c(c3c(=O)c2c1O)C=CC(C)(C)O4 ; measure: MIC ; strain or isolate: H37Ra ; result: 6.25 µg/mL
N[C@@H]1CN(c2c(F)cc3c(=O)c(C(=O)O)cn([C@@H]4C[C@@H]4F)c3c2Cl)CC12CC2 ; measure: MIC ; result: >0.03 µg/mL
O=C1O[C@@H](Cn2nccn2)CN1c1ccc(N2CC3(COC3)C2)c(F)c1 ; measure: MIC ; method: broth dilution / fluorescence ; strain or isolate: H37Rv ; result: >32 µg/mL
CC(C)C(N)C(=O)NC(Cc1ccc(O)cc1)C(=O)NC(C(=O)O)C(C)C ; measure: inhibition ; method: BACTEC ; strain or isolate: H37Rv ; dose: 12.5 µg/mL ; result: 0%
CCCCCCCCP(=O)([O-])C[C@@H]1O[C@H](CO)[C@@H](O)[C@@H]1O ; measure: EC50 ; strain or isolate: H37Rv ; result: >6.25 µg/mL